{
  "source": "ChEMBL document CHEMBL3407490",
  "about": "“Synthesis of functionalized 3-, 5-, 6- and 8-aminoquinolines via intermediate (3-pyrrolin-1-yl)- and (2-oxopyrrolidin-1-yl)quinolines and evaluation of their antiplasmodial and antifungal activity” (Eur J Med Chem, 2015)",
  "system": "Plasmodium falciparum",
  "assay": "Antiplasmodial activity against chloroquine-sensitive asexual erythrocytic stage of Plasmodium falciparum NF54 assessed as […] lactate dehydrogenase assay",
  "data": [
    {"smiles": "Brc1ccc2ncccc2c1N1C[C@@H](Br)[C@H](Br)C1", "values": [
      {"measurement": "IC50", "value": "> 20", "unit": "µM"}
    ]},
    {"smiles": "Brc1c(N2C[C@@H](Br)[C@H](Br)C2)cnc2ccccc12", "values": [
      {"measurement": "IC50", "value": "> 20", "unit": "µM"}
    ]}
  ]
}
